Source: patent US20240122867A1, “CORONAL PROTEIN-COATED NANOPARTICLES AND USES THEREOF” (UNIVERSITY OF CENTRAL FLORIDA RESEARCH FOUNDATION, INC., priority 2021, published 2024)

Tested on: coronal proteins on NPs
Design: species or system mouse
Conditions: for V5 Sera_Nanoparticles Quantitative Value (Normalized Total Spectra): HBPE-NPs incubated 1 h with IAV day 5 (V5) mouse sera, 20:1 NP:sera, centrifuged and washed; for V5 Sera Alone (Control) Quantitative Value (Normalized Total Spectra): IAV day 5 (V5) mouse sera alone, no NPs (sera-only control)

Molecule | V5 Sera_Nanoparticles Quantitative Value (Normalized Total Spectra) | V5 Sera Alone (Control) Quantitative Value (Normalized Total Spectra)
Keratin, type II cytoskeletal 74 (protein, UniProt Q6IFZ9 1-495, looked up) Keratin, type II cytoskeletal …: MASCHTAGHRTGLSSRSLYSLGGNQHTSYNVAGGSARGTRHSFGYGYGGGRGSGFANSMFGSMALGANCPSVCLSGGIYQVTVNKSLLAPLNVELDPEIQKVRAQEREQIKALNDKFASFIDKVRFLEQQNQVLQTKWELLQQLDLSNCRRNLEPVYEAHISNLRKQLEMLSGERVRLDPDLRKMRDVVEDYKKRYEVEITQRTAAENEFVLLKKDADAAYTVKVELQDKVDSLDKDIKFLKCLYDEEISQLQTHASETSVILSMDNNRDLDLAGIIAEVRAHYEDIALKSKAEAEMLYQTKIQELQLAAGCYGDSLKHIRSEMLELDRLIQRIRCDIANVKKQCSNLEMAIADAEQRGDSALKDAWAKLDELEGALQQAKEELARMLCEYQELMGLKLSLDVEIATYRKLLEGEENRMSGENPSSVSVSVISSSCGSCGYHPSSMISDSEAGNAVGSPSTPRNSQSKTRGSSVDPRDAQDESAAAAGTLARKTT | 1.0879 | 0
Biotinidase (protein, UniProt Q8CIF4 22-520, looked up) Biotinidase: VSSASQEHREAEYYVAAVYEHPSVLSPNPLELVSRQEALELMKQNLDVYEQQVMAAAQKGVQIIVFPEDGIHGFNFTRTSIYPFLDFMPSPKLVRWNPCLEPFRFNDTEVLQRLSCMAIKGGMFLVANLGTKQPCLSSDPGCPQDGRYQFNTNVVFSDNGTLVDRYRKHNLYFEAAFDTPANVDLITFDTPFAGKFGVFTCFDILFFDPAVRLLRDFEVKHIVYPTAWMNQLPLLAAIEIQKAFATAFGVNVLAANIHHPTLGMTGSGIHTPLKSFWYHDMDDPKGHLIIAQVATNPQGLTGTGNTTSEMDPSHRKFLKILSGDPYCEKDAQEVHCDEAAKWNVNVPPTFHSEMMYDNFTLVPVWGTEGHLQVCSNSLCCHLLYERPTLSKELYALGVFDGLHTVHGTYYIQTCALVKCGGLGFDTCGQEITEAEGLFDFHLWGNFSTLYIFPLFLTSGMTLDTPDQLGWENDHYFLRKRGLSSGLVTAALYGRLYERK | 2.1758 | 0
Ficolin-1 (protein, UniProt O70165 18-334, looked up) Ficolin-1: SQALGQERGACPDVKVVGLGAQDKVVVIQSCPGFPGPPGPKGEPGSPAGRGERGFQGSPGKMGPAGSKGEPGTMGPPGVKGEKGDTGAAPSLGEKELGDTLCQRGPRSCKDLLTRGIFLTGWYTIHLPDCRPLTVLCDMDVDGGGWTVFQRRVDGSIDFFRDWDSYKRGFGNLGTEFWLGNDYLHLLTANGNQELRVDLQDFQGKGSYAKYSSFQVSEEQEKYKLTLGQFLEGTAGDSLTKHNNMSFTTHDQDNDANSMNCAALFHGAWWYHNCHQSNLNGRYLSGSHESYADGINWGTGQGHHYSYKVAEMKIRAS | 2.1758 | 0
Ig lambda-2 chain C region (protein, UniProt P01844 1-104, looked up) Ig lambda-2 chain C region: QPKSTPTLTVFPPSSEELKENKATLVCLISNFSPSGVTVAWKANGTPITQGVDTSNPTKEGNKFMASSFLHLTSDQWRSHNSFTCQVTHEGDTVEKSLSPAECL | 2.1758 | 0
Keratin, type II cytoskeletal 79 (protein, UniProt Q8VED5 1-531, looked up) Keratin, type II cytoskeletal …: MRSSLSRQTFSTKGGFSSNSASGGGGSRMRTSYSSVTMSRGSGGGGGVRSGSSSGGFGSRSLYNLGGKNISVSMACGASSGRALGGFGSGAYVGLGASRQTFGPVCPPGGIQEVTVNQSLLTPLNVEIDPEIQRVRTQEREQIKTLNNKFASFIDKVRFLEQQNKVLETKWALLQEQSQNTGVARSLEPFFENYLSTLRRQLDTKQSERGRLDMELRNVQDNLEDFKNKYEDEINKRTALENEFVLLKKDVDAAYMGRMDLHGKVDSLTQEIDFLQQLFEMELSQVQTNVSDTNVILSMDNNRNLDLDSIIAEVKAQYELIAQKSRAEAESWYQTKYEELQVTAGKHGDSLRDTKNEIAELTRTTQRLQGEVDAAKKQCQQLQTAIAEAEQNGEMALKDAKKKLGDLDTALHQAKEDLARMLREYQDLVSVKLALDMEIATYRKLLESEESRMSGDCPSAISISVTGNSTSVCAGGTAGFGNGLSLGGAGGASKGGFGSSVSYGAAKGGQVSGGTSILRKTTTVKTSSRRY | 1.0879 | 2.7757
Keratin, type II cytoskeletal 8 (protein, UniProt P11679 1-490, looked up) Keratin, type II cytoskeletal …: MSIRVTQKSYKMSTSGPRAFSSRSFTSGPGARISSSSFSRVGSSSSSFRGSMGTGVGLGGFGGAGVGGITAVTVNQSLLSPLKLEVDPNIQAVRTQEKEQIKSLNNKFASFIDKVRFLEQQNKMLETKWSLLQQQKTSRSNMDNMFESYINNLRRQLEALGQEKLKLEAELGNMQGLVEDFKNKYEDEINKRTEMENEFVLIKKDVDEAYMNKVELESRLEGLTDEINFLRQIHEEEIRELQSQISDTSVVLSMDNSRSLDMDGIIAEVRAQYEDIANRSRAEAETMYQIKYEELQTLAGKHGDDLRRTKTEISEMNRNINRLQAEIEALKGQRASLEAAIADAEQRGEMAIKDAQTKLAELEAALQRAKQDMARQLREYQELMNVKLALDIEITTYRKLLEGEESRLESGMQNMSIHTKTTSGYSGGLSSSYGGLTSPGFSYGMSSFQPGFGSAGGSNTFSRTTKAVVVKKIETRDGKLVSESSDVVSK | 1.0879 | 1.8505
Apolipoprotein C-I (protein, UniProt P34928 27-88, looked up) Apolipoprotein C-I: APDLSGTLESIPDKLKEFGNTLEDKARAAIEHIKQKEILTKTRAWFSEAFGKVKEKLKTTFS | 1.0879 | 10.178
Complement C1q subcomponent subunit C (protein, UniProt Q02105 30-246, looked up) Complement C1q subcomponent …: SAGCYGIPGMPGMPGAPGKDGHDGLQGPKGEPGIPAVPGTRGPKGQKGEPGMPGHRGKNGPRGTSGLPGDPGPRGPPGEPGVEGRYKQKHQSVFTVTRQTTQYPEANALVRFNSVVTNPQGHYNPSTGKFTCEVPGLYYFVYYTSHTANLCVHLNLNLARVASFCDHMFNSKQVSSGGVLLRLQRGDEVWLSVNDYNGMVGIEGSNSVFSGFLLFPD | 2.1758 | 0
Haptoglobin (protein, UniProt Q61646 19-347, looked up) Haptoglobin: VELGNDAMDFEDDSCPKPPEIANGYVEHLVRYRCRQFYRLRAEGDGVYTLNDEKQWVNTVAGEKLPECEAVCGKPKHPVDQVQRIIGGSMDAKGSFPWQAKMISRHGLTTGATLISDQWLLTTAKNLFLNHSETASAKDITPTLTLYVGKNQLVEIEKVVLHPNHSVVDIGLIKLKQRVLVTERVMPICLPSKDYIAPGRVGYVSGWGRNANFRFTDRLKYVMLPVADQDKCVVHYENSTVPEKKNLTSPVGVQPILNEHTFCAGLTKYQEDTCYGDAGSAFAIHDMEEDTWYAAGILSFDKSCAVAEYGVYVRATDLKDWVQETMAKN | 53.308 | 47.187
Plasminogen (protein, UniProt P20918 20-812, looked up) Plasminogen: DSLDGYISTQGASLFSLTKKQLAAGGVSDCLAKCEGETDFVCRSFQYHSKEQQCVIMAENSKTSSIIRMRDVILFEKRVYLSECKTGIGNGYRGTMSRTKSGVACQKWGATFPHVPNYSPSTHPNEGLEENYCRNPDNDEQGPWCYTTDPDKRYDYCNIPECEEECMYCSGEKYEGKISKTMSGLDCQAWDSQSPHAHGYIPAKFPSKNLKMNYCRNPDGEPRPWCFTTDPTKRWEYCDIPRCTTPPPPPSPTYQCLKGRGENYRGTVSVTVSGKTCQRWSEQTPHRHNRTPENFPCKNLEENYCRNPDGETAPWCYTTDSQLRWEYCEIPSCESSASPDQSDSSVPPEEQTPVVQECYQSDGQSYRGTSSTTITGKKCQSWAAMFPHRHSKTPENFPDAGLEMNYCRNPDGDKGPWCYTTDPSVRWEYCNLKRCSETGGSVVELPTVSQEPSGPSDSETDCMYGNGKDYRGKTAVTAAGTPCQGWAAQEPHRHSIFTPQTNPRAGLEKNYCRNPDGDVNGPWCYTTNPRKLYDYCDIPLCASASSFECGKPQVEPKKCPGRVVGGCVANPHSWPWQISLRTRFTGQHFCGGTLIAPEWVLTAAHCLEKSSRPEFYKVILGAHEEYIRGLDVQEISVAKLILEPNNRDIALLKLSRPATITDKVIPACLPSPNYMVADRTICYITGWGETQGTFGAGRLKEAQLPVIENKVCNRVEYLNNRVKSTELCAGQLAGGVDSCQGDSGGPLVCFEKDKYILQGVTSWGLGCARPNKPGVYVRVSRFVDWIEREMRNN | 53.308 | 40.71
C4b-binding protein (protein, UniProt P08607 57-469, looked up) C4b-binding protein: KCGPPPAIPNALPASDVNRTDFESHTTLKYECLPGYGRGISRMMVYCKPSGEWEISVSCAKKHCRNPGYLDNGYVNGETITFGSQIEFSCQEGFILVGSSTSSCEVRGKGVAWSNPFPECVIVKCGPPPDISNGKHSGTEDFYPYNHGISYTCDPGFRLVGSPFIGCTVVNKTVPVWSSSPPTCEKIICSQPNILHGVIVSGYKATYTHRDSVRLACLNGTVLRGRHVIECQGNGNWSSLPTCEFDCDLPPAIVNGYYTSMVYSKITLVTYECDKGYRLVGKAIISCSFSKWKGTAPQCKALCQKPEVGNGTLSDEKDQYVESENVTIQCDSGFAMLGSQSISCSESGTWYPEVPRCEQEASEDLKPALTGNKTMQYVPNSHDVKMALEIYKLTLEVELLQLQIQKEKHTEAH | 1.0879 | 20.355
Extracellular superoxide dismutase [Cu—Zn] (protein, UniProt O09164 25-251, looked up) Extracellular superoxide …: SSFDLADRLDPVEKIDRLDLVEKIGDTHAKVLEIWMELGRRREVDAAEMHAICRVQPSATLPPDQPQITGLVLFRQLGPGSRLEAYFSLEGFPAEQNASNRAIHVHEFGDLSQGCDSTGPHYNPMEVPHPQHPGDFGNFVVRNGQLWRHRVGLTASLAGPHAILGRSVVVHAGEDDLGKGGNQASLQNGNAGRRLACCVVGTSSSAAWESQTKERKKRRRESECKTT | 2.1758 | 0
